Compound potency records, mixed from different reports. Data source: NIAID ChemDB in PubChem.

Shared fields: toxicity to cultured cells; measure: CC50

Conditions beyond the fields shown may differ between rows. CCn is the concentration with n% toxicity to the cells. a–b is a range or a potency band. Blank or dashed fields: not listed here.

C/C(=N\NC(=O)c1ccc(Cl)cc1)c1cccc(/C(C)=N/NC(=O)c2ccc(Cl)cc2)n1 ; cells: HCT116 ; read by: MTT ; result: >100 µM
CC(C)C[C@@H]1NC(=O)[C@@H](CC(C)C)NC(=O)[C@H](Cc2c[nH]c3ccccc23)NC(=O)CNC(=O)[C@H](CC(N)=O)NC(=O)[C@@H](C(C)C)NC1=O ; cells: Lung carcinoma cells ; read by: MTT ; result: >30 µM
Cc1cc(NC(=O)c2c(C)c(C(=O)C(=O)NC3(C)CCC(O)CC3)n(C)c2-c2cccnc2)ccc1F ; cells: HepG2 ; read by: MTT ; result: >30 µM
Cc1c(-c2ccccc2)n(-c2ccccc2F)c2ccc(C(C)C)cc2c1=O ; cells: HELA-OHIO ; read by: MTT ; result: >1 µg/mL
O=c1cc(-c2cccc(CO)c2)c2cccnc2n1O ; cells: HeLa ; result: <100 µM
CC(C)C[C@@H]1NC(=O)[C@@H](Cc2c[nH]c3ccccc23)NC(=O)CNC(=O)[C@@H](CC(N)=O)NC(=O)[C@H](C(C)C)NC(=O)[C@@H](CC(C)C)NC1=O ; cells: Colorectal carcinoma ; read by: MTT ; result: >30 µM
Cc1ccc(-n2ncc3c(CNc4ccc(Cl)c(Cl)c4)ncnc32)c(C)c1 ; cells: HUH 9B ; result: 34 µM
NC(=S)Nc1ccc2c(c1)Cc1ccccc1-2 ; cells: Ava5-EG(delta4AB)SEAP ; read by: MTS ; result: >1 µM
CCc1c(C(=O)Nc2ccc(F)c(C)c2)c(C)n(C)c1C(=O)C(=O)N[C@H](C)C(F)(F)F ; cells: HepG2 ; read by: MTT ; result: 5–30 µM
CCOC(=O)[C@@]1(C)CC[C@]2(C)CC[C@]3(C)C(=CC(=O)[C@@H]4[C@@]5(C)CC/C(=N\OCc6cccc(Cl)c6)C(C)(C)[C@@H]5CC[C@]43C)[C@@H]2C1 ; cells: CT26 ; read by: MTT ; result: 96.28 µM
CCCNC(=S)Nc1ccc2c(c1)Cc1cc(Br)ccc1-2 ; cells: Ava5-EG(delta4AB)SEAP ; read by: MTS ; result: >1 µM
CC(C)C[C@@H]1NC(=O)[C@H](Cc2c[nH]c3ccccc23)NC(=O)C(C[C@@H](C)[C@H](N)C(=O)O)NC(=O)[C@H](CC(N)=O)NC(=O)[C@H](C(C)C)NC(=O)[C@@H](CC(C)C)NC1=O ; cells: Lung carcinoma cells ; read by: MTT ; result: >30 µM
CO/N=C/c1cc(C)c(OCCCc2cc(C)no2)c(C)c1 ; cells: MRC-5 ; read by: visual reading ; result: 20 µg/mL
C[C@@]1(O)[C@H](O)[C@@H](CO)O[C@H]1n1cc(C#CCO)c2c(N)ncnc21 ; cells: ET ; result: >50 µM
S=C(NCCCCc1ccccc1)Nc1cccc(OCCCCCc2ccccc2)c1 ; cells: Ava5-EG(delta4AB)SEAP ; read by: MTS ; result: >1 µM
Cc1c(C(=O)Nc2cccc(C#N)c2)c(C)n(C)c1C(=O)C(=O)NC1(C)CCC(O)CC1 ; cells: HepG2 ; read by: MTT ; result: >30 µM
N#Cc1c(-c2ccccc2)s[nH]c1=S ; cells: HEP-2 ; result: 60 µM
CC(C)C[C@@H]1NC(=O)[C@H](Cc2c[nH]c3ccccc23)NC(=O)[C@@H](CCCCN)NC(=O)[C@H](CCCCN)NC(=O)[C@H](C(C)C)NC(=O)[C@@H](CC(C)C)NC1=O ; cells: Colorectal carcinoma ; read by: MTT ; result: >30 µM
CCn1c(-c2cccc(C)c2)c(C)c(=O)c2c(Cl)c(OCC(C)C)ccc21 ; cells: HELA-OHIO ; read by: MTT ; result: >2.5 µg/mL
CSc1nsc(C2CCCCC2)c1C#N ; cells: HEP-2 ; result: 50 µM
CCO/N=C/c1ccc(OCCC2CCN(c3ccc(Cl)nn3)CC2)cc1O ; cells: MRC-5 ; read by: visual reading ; result: >1 µg/mL
NCc1cccc(CNC(=O)Cc2c(O)c3cccnc3n(O)c2=O)c1 ; cells: HeLa ; result: <100 µM
CO/N=C/c1ccc(OCCC2CCN(c3nc(OC)nc(OC)n3)CC2)cc1 ; cells: MRC-5 ; read by: neutral red ; result: >0.1 µg/mL
N#Cc1ccc(OCCCCCOc2cccc(NC(N)=S)c2)cc1 ; cells: Ava5-EG(delta4AB)SEAP ; read by: MTS ; result: >1 µM
CCOC(=O)[C@@]1(C)CC[C@]2(C)CC[C@]3(C)C(=CC(=O)[C@@H]4[C@@]5(C)CC/C(=N\OCc6cccc(C)c6)C(C)(C)[C@@H]5CC[C@]43C)[C@@H]2C1 ; cells: K562 ; read by: MTT ; result: 78.1 µM
CCOC(=O)N1CCC(Nc2cc(=O)n(O)c3ncccc23)CC1 ; cells: HeLa ; result: <100 µM
Cc1c(-c2cccs2)n(C)c2ccc(OCC(C)C)c(C)c2c1=O ; cells: HeLa S3 ; read by: MTT ; result: >2.5 µg/mL
CCOC(=O)[C@@]1(C)CC[C@]2(C)CC[C@]3(C)C(=CC(=O)[C@@H]4[C@@]5(C)CC/C(=N\OCc6ccc(Cl)c(Cl)c6)C(C)(C)[C@@H]5CC[C@]43C)[C@@H]2C1 ; cells: CT26 ; read by: MTT ; result: 54.85 µM
Cc1cc(NC(=O)c2c(C)c(C(=O)C(=O)NCC(C)(C)O)n(C)c2-c2nccs2)ccc1F ; cells: HepG2 ; read by: MTT ; result: >30 µM
Cc1ccc(-n2ncc3c(Nc4cc(Cl)cc(Cl)c4)ncnc32)c(C)c1 ; cells: HUH 9B ; result: >50 µM
O=c1cc(-c2cccc(CN3CCN(Cc4ccccc4)CC3)c2)c2cccnc2n1O ; cells: HeLa ; result: <100 µM
NC(=S)Nc1cccc(OCCCCCOc2ccc(F)cc2F)c1 ; cells: Ava5-EG(delta4AB)SEAP ; read by: MTS ; result: >1 µM
NCc1cccc(-c2cccc(Cc3cc(=O)n(O)c4ncccc34)c2)c1 ; cells: HeLa ; result: 0.29 µM
CC(C)C[C@@H]1NC(=O)[C@H](Cc2c[nH]c3ccccc23)NC(=O)[C@H]2CCCN2C(=O)[C@H](CCCCN)NC(=O)[C@H](C(C)C)NC(=O)[C@@H](CC(C)C)NC1=O ; cells: Lung carcinoma cells ; read by: MTT ; result: >30 µM
CCn1c(-c2cccc(F)c2)c(C)c(=O)c2cc(C(C)C)ccc21 ; cells: HeLa S3 ; read by: MTT ; result: >4 µg/mL
CCc1c(C(=O)Nc2ccc(F)c(C)c2)c(C)n(C)c1C(=O)C(=O)NCC(C)(C)O ; cells: HepG2 ; read by: MTT ; result: >30 µM
CSc1nsc(-c2ccc(Cl)cc2)c1C#N ; cells: L929 ; result: 5 µM
Cc1ccc(-n2ncc3c(Nc4ccc5[nH]ncc5c4)ncnc32)c(C)c1 ; cells: HUH 9B ; result: >50 µM
Cc1c(C(=O)N2CCC(C)(O)CC2)c(C)n(C)c1C(=O)C(=O)NC(C)(C)C ; cells: HepG2 ; read by: MTT ; result: >30 µM
CC(C)[C@@H]1NC(=O)[C@@H](C(C)C)OC(=O)[C@H](C(C)C)N(C)C(=O)[C@@H](C(C)C)OC(=O)[C@H](C(C)C)N(C)C(=O)[C@@H](C(C)C)OC1=O ; cells: KB cells ; read by: absorbance ; result: 2.24 µM
C#Cc1cn([C@@H]2O[C@H](CO)[C@@H](O)[C@@]2(C)O)c2ncnc(N)c12 ; cells: ET ; result: >50 µM
CCO/N=C/c1ccc(OCCC2CCN(c3ccc(Cl)nn3)CC2)c(C)c1 ; cells: MRC-5 ; read by: neutral red ; result: >0.1 µg/mL
CCn1c(-c2ccccc2)c(C)c(=O)c2cc(C(C)C)ccc21 ; cells: HeLa S3 ; read by: MTT ; result: 12 µg/mL
CCOC(=O)[C@@]1(C)CC[C@]2(C)CC[C@]3(C)C(=CC(=O)[C@@H]4[C@@]5(C)CC/C(=N\OCc6cc(F)cc(F)c6)C(C)(C)[C@@H]5CC[C@]43C)[C@@H]2C1 ; cells: CT26 ; read by: MTT ; result: 10.38 µM
NC(=S)Nc1ccc(OCCCCCOc2ccc(F)cc2F)cc1 ; cells: Ava5-EG(delta4AB)SEAP ; read by: MTS ; result: >1 µM
Cc1c(C(=O)Nc2cc(Cl)nc(Cl)c2)c(C)n(C)c1C(=O)C(=O)NC1(C)CCC(O)CC1 ; cells: HepG2 ; read by: MTT ; result: >30 µM
S=C(Nc1cccnc1)Nc1ccc2c(c1)Cc1cc(Br)ccc1-2 ; cells: Ava5-EG(delta4AB)SEAP ; read by: MTS ; result: >1 µM
CCO/N=C/c1ccc(OCCC2CCN(c3ccc(C)nn3)CC2)c(C)c1C ; cells: MRC-5 ; read by: neutral red ; result: >0.1 µg/mL
CCOC(=O)[C@@]1(C)CC[C@]2(C)CC[C@]3(C)C(=CC(=O)[C@@H]4[C@@]5(C)CC/C(=N\OCC6CCOCC6)C(C)(C)[C@@H]5CC[C@]43C)[C@@H]2C1 ; cells: K562 ; read by: MTT ; result: 21.28 µM
NS(=O)(=O)c1ccc(CCNc2ncnc3c2cnn3-c2ccccc2C(F)(F)F)cc1 ; cells: HUH 9B ; result: >50 µM
CSc1nsc(C)c1C#N ; cells: L929 ; result: 100 µM
Cc1cc(NC(=O)c2c(C)c(C(=O)C(=O)N3CCOCC3)n(C)c2C)ccc1F ; cells: HepG2 ; read by: MTT ; result: >30 µM
CSc1nsc(-c2ccc(OCc3ccccc3)cc2)c1C#N ; cells: L929 ; result: >50 µM
CC[C@@H]1/C=C(\C)C[C@H](C)C[C@H](OC)[C@H]2O[C@@](O)(C(=O)C(=O)N3CCCC[C@H]3C(=O)O[C@H](/C(C)=C/[C@H]3CC[C@H](O)[C@H](OC)C3)[C@H](C)[C@@H](O)CC1=O)[C@H](C)C[C@@H]2OC ; cells: P815 ; result: 40 µg/mL
CCOC(=O)[C@@]1(C)CC[C@]2(C)CC[C@]3(C)C(=CC(=O)[C@@H]4[C@@]5(C)CC/C(=N\OCc6ccccc6F)C(C)(C)[C@@H]5CC[C@]43C)[C@@H]2C1 ; cells: K562 ; read by: MTT ; result: 20.67 µM

Repeating the final 7 entries:

compound | cells | read by | result
CCOC(=O)[C@@]1(C)CC[C@]2(C)CC[C@]3(C)C(=CC(=O)[C@@H]4[C@@]5(C)CC/C(=N\OCC6CCOCC6)C(C)(C)[C@@H]5CC[C@]43C)[C@@H]2C1 | K562 | MTT | 21.28 µM
NS(=O)(=O)c1ccc(CCNc2ncnc3c2cnn3-c2ccccc2C(F)(F)F)cc1 | HUH 9B | - | >50 µM
CSc1nsc(C)c1C#N | L929 | - | 100 µM
Cc1cc(NC(=O)c2c(C)c(C(=O)C(=O)N3CCOCC3)n(C)c2C)ccc1F | HepG2 | MTT | >30 µM
CSc1nsc(-c2ccc(OCc3ccccc3)cc2)c1C#N | L929 | - | >50 µM
CC[C@@H]1/C=C(\C)C[C@H](C)C[C@H](OC)[C@H]2O[C@@](O)(C(=O)C(=O)N3CCCC[C@H]3C(=O)O[C@H](/C(C)=C/[C@H]3CC[C@H](O)[C@H](OC)C3)[C@H](C)[C@@H](O)CC1=O)[C@H](C)C[C@@H]2OC | P815 | - | 40 µg/mL
CCOC(=O)[C@@]1(C)CC[C@]2(C)CC[C@]3(C)C(=CC(=O)[C@@H]4[C@@]5(C)CC/C(=N\OCc6ccccc6F)C(C)(C)[C@@H]5CC[C@]43C)[C@@H]2C1 | K562 | MTT | 20.67 µM